A mixed list of measured activities; the numbers were collected in NIAID ChemDB.

Shared fields: tests on isolated targets; species: HIV-1; target: Reverse transcriptase; endpoint: Ki

Blank or dashed fields: not listed here. Neighbouring rows are from separate reports.

compound	conditions	strain or isolate	changes	method	result
COc1ccc2c(c1)N(C(=O)OC(C)C)[C@@H](CSC)C(=S)N2		IIIB	RT-P225H	RT activity	0.028 µM
Nc1nc2c(ncn2COCCOP(=O)(O)OP(=O)(O)OP(=O)(O)O)c(=O)[nH]1				nucleotide incorporation / radiometric	>20 µM
Cc1cc(C)cc(C(=O)c2cc(Cl)ccc2OCCN2CCC(=O)NC2=O)c1	pseudotyped		K103N + Y181C	RT activity	57 µM
Cc1cc2c(cc1C)n1cccc1c(=O)n2CCNC(=S)Nc1ccc(Br)cn1			RT-Y181I	nucleotide incorporation	0.99 µM
Cc1cn([C@H]2C=C[C@@H](COP(=O)(O)OP(=O)(O)OP(=O)(O)O)O2)c(=O)[nH]c1=O				nucleotide incorporation / radiometric	0.28 µM
O=c1c2cccn2c2ccccc2n1CCNC(=S)Nc1ccc(Cl)cn1			RT-V106A	nucleotide incorporation	1.6 µM
Nc1ncnc2c1ncn2[C@@H]1O[C@H](COP(=O)(O)OP(=O)(O)OP(=O)(O)O)C[C@@H]1F			RT-M184V	nucleotide incorporation / radiometric	2.5 µM
CC(C)=CCN1Cc2cccc3[nH]c(=S)n(c23)C[C@@H]1C			RT-Q161L H208Y		0.46 µM
Cc1cn([C@H]2CC[C@@H](COP(=O)(O)OP(=O)(O)OP(=O)(O)O)O2)c(=O)[nH]c1=O			RT-WT	RT activity	0.02 µM
CC(C)(C)OC(=O)Cn1cnc2c(=O)[nH]c(NC(=O)OCc3ccccc3)nc21		WT		nucleotide incorporation / radiometric	400 µM
O=c1c2cccn2c2cccc(F)c2n1CCNC(=S)Nc1ccc(Br)cn1			RT-Y188L	nucleotide incorporation	0.2 µM
CCOCn1c(Cc2ccccc2)c(C(C)C)c(=O)[nH]c1=O		IIIB	RT-V106A	RT activity	0.73 µM
O=C1c2ccncc2C(=O)N1CCNC(=S)Nc1ccc(Br)cn1			RT-K103N	nucleotide incorporation	>5 µM
Cc1cc(C)cc(C(=O)c2cc(Cl)ccc2OCCN2C(=O)NC(=O)C(C)C2C)c1	pseudotyped		V106A	RT activity	>8.6 µM
Nc1ncnc2c1ncn2[C@H]1CC[C@@H](COP(=O)(O)OP(=O)(O)OP(=O)(O)O)O1			RT-A62V V75I F77L F116Y Q151M	nucleotide incorporation / radiometric	3.3 µM
O=C1c2cccnc2C(=O)N1CCNC(=S)Nc1ccc(Br)cn1			RT-V106A	nucleotide incorporation	0.1 µM
O=C(O)Cn1cnc2c(Oc3ccccc3[N+](=O)[O-])nc(NC(=O)OCc3ccccc3)nc21		NNRTI-resistant	Y181I	nucleotide incorporation / radiometric	15 µM

The last 2 rows once more:

compound,conditions,strain or isolate,changes,method,result
O=C1c2cccnc2C(=O)N1CCNC(=S)Nc1ccc(Br)cn1,,,RT-V106A,nucleotide incorporation,0.1 µM
O=C(O)Cn1cnc2c(Oc3ccccc3[N+](=O)[O-])nc(NC(=O)OCc3ccccc3)nc21,,NNRTI-resistant,Y181I,nucleotide incorporation / radiometric,15 µM